Data as given in PubChem BioAssay AID624099 (ICCB-Longwood, 2012)

- Screen: 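Host factors E2 relies on to silence an HPV18 LCR reporter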 (primary screen)
- System: human C33A cervical carcinoma cells (HPV-negative) stably expressing BPV1 E2 and an HPV18 LCR luciferase reporter
- Reagent: siRNA pool against human genes, 40 nM
- Timing: 72 h
- Measurement: 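HPV18 LCR reporter light per well, converted to plate-wise z-scores that exclude control wells, and averaged over triplicate plates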
- Reading the numbers: mean z-score and z-score: higher = stronger reporter signal, weaker E2 silencing
- Call rule: 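Hit if mean z-score reaches 2 and two or more of three replicate z-scores also reach 2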
Shown is an unselected part of about 21,000 reagents. 497 of them (2.4%) were called active. 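Higher z means weaker E2 silencing; only reporter increases were scored, and knock-downs that hurt cell survival may mask genuine repressor factors.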 Reagents against one gene are numbered here.

no.	gene knocked down	reagent	mean z-score	z-score, replicate A	z-score, replicate B	z-score, replicate C	Outcome
1	LOC389212 (retired record) (GeneID 389212)	1	0.3	0.57	0.05	0.28	inactive
2	POPDC2 (GeneID 64091)	1	0.17	0	-0.1	0.61	inactive
3	APOC2 (GeneID 344)	1	-1.04	-0.67	-1.38	-1.07	inactive
4	GPR183 (GeneID 1880)	1	-0.37	-0.51	-0.51	-0.09	inactive
5	TMT1A (GeneID 25840)	1	0.22	0.11	0.48	0.08	inactive
6	MAPK1IP1L (GeneID 93487)	1	2.72	2.89	2.61	2.66	active
7	BEST3 (GeneID 144453)	1	-1.17	-1.01	-1.23	-1.27	inactive
8	BEST3 (GeneID 144453)	2	0.53	0.55	0.83	0.21	inactive
9	USP1 (GeneID 7398)	1	0.16	0.32	0.12	0.04	inactive
10	ERICH3 (GeneID 127254)	1	-0.31	-0.55	-0.17	-0.21	inactive
11	SIAH1P1 (GeneID 340571)	1	1.54	1.54	1.42	1.65	inactive
12	LINC01018 (GeneID 255167)	1	-1.08	-1.11	-0.97	-1.15	inactive
13	SPATA8 (GeneID 145946)	1	0.22	-0.09	0.29	0.45	inactive
14	GTF2H2 (GeneID 2966)	1	0.33	0.32	0.33	0.34	inactive
15	WDR4 (GeneID 10785)	1	0.54	0.47	0.57	0.57	inactive
16	WASH6P (GeneID 653440)	1	2.08	2	1.83	2.4	active
17	WASH6P (GeneID 653440)	2	-0.1	-0.25	0.21	-0.26	inactive
18	RERGL (GeneID 79785)	1	1.15	1.65	0.96	0.84	inactive
19	SEMA4C (GeneID 54910)	1	1.4	1.42	1.41	1.38	inactive

Laid out differently: entries from further up.
LINC01018 (GeneID 255167)
- mean z-score: -1.08
- z-score, replicate A: -1.11
- z-score, replicate B: -0.97
- z-score, replicate C: -1.15
- Outcome: inactive

SPATA8 (GeneID 145946)
- mean z-score: 0.22
- z-score, replicate A: -0.09
- z-score, replicate B: 0.29
- z-score, replicate C: 0.45
- Outcome: inactive

GTF2H2 (GeneID 2966)
- mean z-score: 0.33
- z-score, replicate A: 0.32
- z-score, replicate B: 0.33
- z-score, replicate C: 0.34
- Outcome: inactive

WDR4 (GeneID 10785)
- mean z-score: 0.54
- z-score, replicate A: 0.47
- z-score, replicate B: 0.57
- z-score, replicate C: 0.57
- Outcome: inactive

WASH6P (GeneID 653440) #1
- mean z-score: 2.08
- z-score, replicate A: 2
- z-score, replicate B: 1.83
- z-score, replicate C: 2.4
- Outcome: active

WASH6P (GeneID 653440) #2
- mean z-score: -0.1
- z-score, replicate A: -0.25
- z-score, replicate B: 0.21
- z-score, replicate C: -0.26
- Outcome: inactive

The listing continues.
no.	gene knocked down	reagent	mean z-score	z-score, replicate A	z-score, replicate B	z-score, replicate C	Outcome
20	ARPIN (GeneID 348110)	1	0.54	0.45	0.73	0.44	inactive
21	FKBP4 (GeneID 2288)	1	1.17	1.78	0.93	0.8	inactive
22	LOC389370 (retired record) (GeneID 389370)	1	-0.32	-0.36	-0.24	-0.35	inactive
23	LDLRAD1 (GeneID 388633)	1	-1.42	-1.3	-1.21	-1.75	inactive
24	PARM1 (GeneID 25849)	1	0.78	0.62	1.08	0.64	inactive
25	OR5B3 (GeneID 441608)	1	-3.6	-4.03	-3.38	-3.4	inactive
26	TRIP4 (GeneID 9325)	1	0.11	0.07	0.09	0.18	inactive
27	GOLGA2P5 (GeneID 55592)	1	-0.14	0.2	-0.5	-0.14	inactive
28	NDUFB4 (GeneID 4710)	1	0.07	0.16	0.02	0.04	inactive
29	BTBD10 (GeneID 84280)	1	0.26	0.31	0.14	0.33	inactive
30	LOC344382 (GeneID 344382)	1	-0.05	0.3	-0.05	-0.39	inactive
31	FLJ10232 (retired record) (GeneID 55099)	1	0.61	1.07	1.18	-0.43	inactive
32	LOC391761 (retired record) (GeneID 391761)	1	0.53	0.25	0.62	0.73	inactive
33	LOC392473 (retired record) (GeneID 392473)	1	2.05	2.35	1.9	1.92	inactive
34	CLIC4 (GeneID 25932)	1	0.33	0.32	0.26	0.4	inactive
35	SIGMAR1 (GeneID 10280)	1	-0.16	-0.25	0.04	-0.25	inactive
36	PLA2G2F (GeneID 64600)	1	-0.76	-0.45	-0.74	-1.08	inactive
37	CST9L (GeneID 128821)	1	0.06	-0.24	0.38	0.03	inactive
38	RAB26 (GeneID 25837)	1	-0.12	-0.1	-0.13	-0.15	inactive
39	OR2A5 (GeneID 393046)	1	-0.48	-0.6	-0.38	-0.46	inactive
